Experimental data reported in patent US8093037B2, “Engineered microorganisms with enhanced fermentation activity” (Verdezyne, Inc., priority 2009, dated 2012).

B1: XI-R: native xylose isomerase of Ruminococcus flavefaciens strain 17, SEQ ID NO: 31 (protein, listed as Ruminococcus flavefaciens)
chain: MEFFSNIGKIQYQGPKSTDPLSFKYYNPEEVINGKTMREHLKFALSWWHTMGGDGTDMFGCGTTDKTWGQSDPAARAKAKVDAAFEIMDKLSIDYYCFHDRDLSPEYGSLKATNDQLDIVTDYIKEKQGDKFKCLWGTAKCFDHPRFMHGAGTSPSADVFAFSAAQIKKALESTVKLGGNGYVFWGGREGYETLLNTNMGLELDNMARLMKMAVEYGRSIGFKGDFYIEPKPKEPTKHQYDFDTATVLGFLRKYGLDKDFKMNIEANHATLAQHTFQHELRVARDNGVFGSIDANQGDVLLGWDTDQFPTNIYDTTMCMYEVIKAGGFTNGGLNFDAKARRGSFTPEDIFYSYIAGMDAFALGFRAALKLIEDGRIDKFVADRYASWNTGIGADIIAGKADFASLEKYALEKGEVTASLSSGRQEMLESIVNNVLFSL

Assay: Western blot of His-tagged xylose isomerase constructs expressed in S. cerevisiae BY4742
Design: species or system Saccharomyces cerevisiae
Conditions: p426GPD

Molecule	expression of xylose isomerase (western)	expression of xylose isomerase (western) (listed as wild type Piromyces xylose isomerase)	expression of xylose isomerase (western) (listed as wild type R. flavefaciens xylose isomerase)
XI-P: xylose isomerase from Piromyces strain E2, SEQ ID NO: 35	expressed in both the soluble and insoluble fractions	expressed in the soluble fraction	–
B1	expressed in both the soluble and insoluble fractions	–	expressed in the soluble fraction
